Laboratory results as given in publication PMC6600388 (2019).
Read-outs that look alike come from different tables or passages of the source.

Test system: human red blood cells
Conditions: red cells of human

## CC[C@H](C)[C@H](NC(=O)[C@H](C)NC(=O)[C@H](CCC(=O)O)NC(=O)[C@H](Cc1ccccc1)NC(=O)[C@H](CC(C)C)NC(=O)CNC(=O)[C@@H](N)CS)C(=O)N[C@@H](CCC(=O)O)C(=O)NCC(=O)N[C@@H](Cc1ccccc1)C(=O)N[C@H](C(=O)N[C@@H](CCC(=O)O)C(=O)N[C@@H](CC(N)=O)C(=O)N[C@@H](CCCCN)C(=O)N[C@@H](Cc1c[nH]c2ccccc12)C(=O)N[C@@H](CCC(=O)O)C(=O)NCC(=O)N[C@@H](CCSC)C(=O)N[C@H](C(=O)N[C@@H](CC(=O)O)C(=O)NCC(=O)N[C@@H](Cc1c[nH]c2ccccc12)C(=O)N[C@@H](Cc1ccc(O)cc1)C(=O)NCC(=O)N[C@@H](Cc1ccc(O)cc1)C(=O)NCC(=O)N[C@@H](CCCNC(=N)N)C(=O)N[C@@H](CCCCN)C(=O)N[C@@H](CCCCN)C(=O)N[C@@H](CCCNC(=N)N)C(=O)N[C@@H](CCCNC(=N)N)C(=O)N[C@@H](CCC(N)=O)C(=O)N[C@@H](CCCNC(=N)N)C(=O)N[C@@H](CCCNC(=N)N)C(N)=O)[C@@H](C)CC)[C@@H](C)CC [Peptide 24b]
pH 5.5
  IC50: > 10 µM
pH 7.4
  IC50: > 10 µM
